Anti-infective test results gathered from many reports (values: NIAID ChemDB through PubChem).

All rows: cytotoxicity tests; cell line: MT-2; read-out: CC50

Blank or dashed fields: not listed here. Rows are shuffled and stem from different studies. CCn: concentration that lowers growth or viability of the cells by n%.

SMILES,read by,value
COc1ccc(N(C)C(=O)[C@H](Cc2ccccc2)NC(=O)NS(=O)(=O)N[C@@H](Cc2ccccc2)C(=O)N(C)c2ccc3c(c2)OCO3)cc1,XTT,50 µM
O=C(C(=O)N1CCN(C(=O)c2ccccc2)CC1)c1c[nH]c2cc(F)ccc12,XTT,>10 µM
Clc1cccc(Cl)c1Cc1nnc(Nc2ccc(COCc3ccncc3)cc2)o1,MTT,6 µM
Cc1cc(C)n(-c2cccc(-c3c(C(OC(C)(C)C)C(=O)O)c(C)nc4sc5c(c34)CCCC5)c2)n1,,>20 µM
Cc1cc(Nc2nnc(Cc3c(Cl)cccc3Cl)o2)ccc1Cl,MTT,>100 µM
COC(=O)C(CNC(=O)/C=C/c1ccc(O)c(O)c1)NC(=O)/C=C/c1ccc(O)c(O)c1,neutral red,>49 µM
C=CCN(C(=O)[C@H](Cc1cc(F)cc(F)c1)NC(=O)c1ccccc1S(=O)(=O)N[C@@H](Cc1cc(F)cc(F)c1)C(=O)N(CC=C)c1ccc(OC)cc1)c1ccc(OC)cc1,XTT,100 µM
CCOC(=O)Nc1[nH]c2ccc(Cl)cc2c1C(=O)C(F)(F)F,ATP,>200 µM
COC(=O)C(CCCNC(=O)/C=C/c1cc(OC)c(OC)c(OC)c1)NC(=O)/C=C/c1cc(OC)c(OC)c(OC)c1,neutral red,>56 µM
Nc1ncn([C@@H]2CO[C@H](CO)O2)c(=O)n1,,17 µM
COC(=O)[C@H](CCCCNC(=O)/C=C/c1cc(OC)c(OC)c(OC)c1)NC(=O)/C=C/c1cc(OC)c(OC)c(OC)c1,neutral red,>104 µM
Cc1cc2cc(C#N)cn2c(C)c1Nc1ccnc(Nc2ccc(C#N)cc2)n1,MTT,10.1 µM
COc1ccc(N(C)C(=O)[C@H](Cc2cc(F)cc(F)c2)NC(=O)CN2c3ccccc3N(CC(=O)N[C@@H](Cc3cc(F)cc(F)c3)C(=O)N(C)c3ccc(OC)cc3)S2(=O)=O)cc1,XTT,100 µM
COC(=O)[C@H](CCCCNC(=O)c1cc(O)c(O)c(O)c1)NC(=O)c1cc(O)c(O)c(O)c1,neutral red,>29 µM
O=C(C(=O)N1CCN(C(=O)c2ccc(F)c(Cl)c2)CC1)c1c[nH]c2ccccc12,XTT,>10 µM
Cc1nc2sc3c(c2c(-c2ccc4ncn(C)c4c2)c1C(OC(C)(C)C)C(=O)O)CCCC3,,>20 µM
NC(=O)c1cc(-c2cccnc2[C@H](Cc2cc(F)cc(F)c2)NC(=O)NS(=O)(=O)N[C@@H](Cc2cc(F)cc(F)c2)c2ncccc2-c2ccc(F)c(C(N)=O)c2)ccc1F,XTT,100 µM
Fc1ccc(Nc2ncc(Cc3c(Cl)cccc3Cl)o2)cc1,MTT,12 µM
CCCCC(O)(c1c(NC(=O)OCC)[nH]c2cc(Cl)cc(Cl)c12)C(F)(F)F,ATP,85.1 µM
Cc1nc2sc3c(c2c(-c2ccccc2O)c1C(OC(C)(C)C)C(=O)O)CCCC3,,>20 µM
Clc1cccc(Nc2nnc(Cc3c(Cl)cccc3Cl)o2)c1,MTT,71 µM
CCOC(=O)Nc1[nH]c2ccc(Cl)cc2c1C(C)(O)C(F)(F)F,ATP,>200 µM
O=C(C(=O)N1CCN(C(=O)c2ccccc2)CC1)c1c[nH]c2ccc(F)cc12,XTT,>10 µM
Cc1cn([C@H]2C=C[C@@H](CO)O2)c(=O)[nH]c1=O,,>100 µM
O=C(NCCC(NC(=O)c1ccc(O)c(O)c1)C(=O)O)c1ccc(O)c(O)c1,neutral red,>75 µM
Cc1ccc(Nc2ncc(Cc3c(F)cccc3F)o2)cc1,MTT,>100 µM
COc1ccc(N(C)C(=O)[C@H](Cc2ccccc2)NC(=O)c2cccc(C(=O)N[C@@H](Cc3ccccc3)C(=O)N(C)c3ccc(OC)cc3)n2)cc1,XTT,33.3 µM
Nc1nc(Cl)c2ncn([C@H]3CC[C@@H](CO)C3)c2n1,,>100 µg/mL
CN(C(=O)[C@H](Cc1cc(F)cc(F)c1)NC(=O)N[C@@H](Cc1cc(F)cc(F)c1)C(=O)N(C)c1ccc2scnc2c1)c1ccc2scnc2c1,XTT,100 µM
Nc1nc2c(ncn2[C@H]2CC[C@@H](CO)C2)c(=O)[nH]1,,>100 µg/mL
Cc1nc2sc3c(c2c(-c2ccc4c(cnn4C)c2)c1C(OC(C)(C)C)C(=O)O)CCCC3,,>20 µM
CCOC(=O)Nc1[nH]c2cccc(Br)c2c1C(=O)C(F)(F)F,ATP,>200 µM
Nc1nc(N)c2ncn([C@H]3C=C[C@@H](CO)C3)c2n1,,>125 µg/mL
Clc1cc(Cl)cc(Nc2ncc(Cc3c(Cl)cccc3Cl)o2)c1,MTT,19 µM
COc1ccc(Cc2n[nH]c(=O)c3ccccc23)cc1OC,propidium iodide,>168 µM
COc1ccc(N(C)C(=O)[C@H](Cc2ccccc2)NC(=O)c2ccccc2C(=O)N[C@@H](Cc2ccccc2)C(=O)N(C)c2ccc(OC)cc2)cc1,XTT,31.1 µM
C=CCn1nc(Cc2ccc(Cl)cc2)c2ccccc2c1=O,propidium iodide,>161 µM
CC(=O)Oc1ccccc1C(=O)N1CCN(C(=O)C(=O)c2c[nH]c3ccccc23)CC1,XTT,>10 µM
CCOC(=O)Nc1[nH]c2cccc(Br)c2c1C(O)(C(C)C)C(F)(F)F,ATP,33.2 µM
C=CCn1nc(Cc2ccc(SC)cc2)c2ccccc2c1=O,propidium iodide,70.9 µM
O=C(/C=C/c1cc(O)c(O)c(O)c1)NCCCC[C@H](NC(=O)/C=C/c1cc(O)c(O)c(O)c1)C(=O)O,neutral red,>39 µM
COc1ccc(Cc2nn(C(C)(C)C)c(=O)c3ccccc23)cc1,propidium iodide,73.9 µM
CCc1cccc2c(C(=O)C(=O)N3CCN(C(=O)c4ccccc4)CC3)c[nH]c12,XTT,>10 µM
Cc1ccc2c(c1)/C(=C/c1ccc(Cl)cc1Cl)OC2=O,propidium iodide,>164 µM
COC(=O)C(CCCCNC(=O)c1ccc(O)c(O)c1)NC(=O)c1ccc(O)c(O)c1,neutral red,>70 µM
CCc1ccc(Nc2ncc(Cc3c(F)cccc3F)o2)cc1,MTT,>100 µM
Nc1ncn([C@H]2CO[C@H](CO)O2)c(=O)n1,,18 µM
Cc1nc2sc3c(c2c(-c2ccc(Cl)cc2)c1[C@H](OC(C)(C)C)C(=O)O)CCCC3,,>20 µM
Cc1ccc(C(=O)N2CCN(C(=O)C(=O)c3c[nH]c4ccccc34)CC2)cc1F,XTT,>10 µM
COC(=O)C(CCCNC(=O)/C=C/c1ccc(O)c(O)c1)NC(=O)/C=C/c1ccc(O)c(O)c1,neutral red,>33 µM
O=C(C(=O)N1CCN(C(=O)c2ccc(F)cc2)CC1)c1c[nH]c2ccccc12,XTT,>10 µM
Cc1ccc2c(=O)n(C)nc(Cc3ccc(Cl)cc3)c2c1,propidium iodide,94.6 µM

The last 5 rows once more:

{"SMILES": "Cc1nc2sc3c(c2c(-c2ccc(Cl)cc2)c1[C@H](OC(C)(C)C)C(=O)O)CCCC3", "value": ">20 µM"}
{"SMILES": "Cc1ccc(C(=O)N2CCN(C(=O)C(=O)c3c[nH]c4ccccc34)CC2)cc1F", "read by": "XTT", "value": ">10 µM"}
{"SMILES": "COC(=O)C(CCCNC(=O)/C=C/c1ccc(O)c(O)c1)NC(=O)/C=C/c1ccc(O)c(O)c1", "read by": "neutral red", "value": ">33 µM"}
{"SMILES": "O=C(C(=O)N1CCN(C(=O)c2ccc(F)cc2)CC1)c1c[nH]c2ccccc12", "read by": "XTT", "value": ">10 µM"}
{"SMILES": "Cc1ccc2c(=O)n(C)nc(Cc3ccc(Cl)cc3)c2c1", "read by": "propidium iodide", "value": "94.6 µM"}